Measured values from paper PMC10359466, “Identification of a small-molecule inhibitor that selectively blocks DNA-binding by Trypanosoma brucei replication protein A1” (Nature Communications, 2023).

Legend:
[1] = system: TbRPA complex: 6xHis-RPA1 + TbRPA2 + TbRPA3; assay: MST; conditions: with JC-229 (inhibitor IC50 33.9 nM); 20 mM Tris pH 7.5, 10 mM NaCl, 10 mM MgCl2, 2 mM DTT, 10% glycerol, 0.1 mg/ml BSA, 15 min, room temperature; recombinant protein; protein details: N-term 6xHis, thrombin site,none,none; label: 5' Cy5 (MST) or 5' IRDye800 (EMSA); single-stranded DNA
[2] = molecular target: T1, TbRPA1 DBD-AB (Trypanosoma brucei) (UniProt Q384B5); assay: MST; conditions: with JC-229 (inhibitor IC50 881 nM); 20 mM Tris pH 7.5, 10 mM NaCl, 10 mM MgCl2, 2 mM DTT, 10% glycerol, 0.1 mg/ml BSA, 15 min, room temperature; recombinant protein; protein details: N-term 6xHis (pET28a); label: 5' Cy5 (MST) or 5' IRDye800 (EMSA); single-stranded DNA
T1 sequence (looked up, limits assumed): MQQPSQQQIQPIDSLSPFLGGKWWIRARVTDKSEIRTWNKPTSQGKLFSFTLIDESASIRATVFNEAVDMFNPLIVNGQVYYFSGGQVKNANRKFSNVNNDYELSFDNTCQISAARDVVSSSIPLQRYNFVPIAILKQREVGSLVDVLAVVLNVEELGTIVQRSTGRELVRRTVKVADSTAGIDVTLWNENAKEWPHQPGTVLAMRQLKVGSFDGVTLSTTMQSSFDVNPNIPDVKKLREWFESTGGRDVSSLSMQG

[3] = system: TbRPA complex: 6xHis-RPA1 + TbRPA2 + TbRPA3; assay: EMSA, MST; conditions: 20 mM Tris pH 7.5, 10 mM NaCl, 10 mM MgCl2, 2 mM DTT, 10% glycerol, 0.1 mg/ml BSA, 15 min, room temperature, EMSA 2 nM probe (gel at 4 C), MST 10 nM probe, recombinant protein, protein details: N-term 6xHis, thrombin site,none,none, label: 5' Cy5 (MST) or 5' IRDye800 (EMSA), single-stranded DNA
[4] = molecular target: T1, TbRPA1 DBD-AB (Trypanosoma brucei); assay: EMSA, MST; conditions: with JC-229 (inhibitor IC50 228 nM by MST); 20 mM Tris pH 7.5, 10 mM NaCl, 10 mM MgCl2, 2 mM DTT, 10% glycerol, 0.1 mg/ml BSA, 15 min, room temperature; EMSA 2 nM probe (gel at 4 C), MST 10 nM probe; recombinant protein; protein details: N-term 6xHis (pET28a); label: 5' Cy5 (MST) or 5' IRDye800 (EMSA); single-stranded DNA
[5] = system: TbRPA complex: 6xHis-RPA1 + TbRPA2 + TbRPA3; assay: EMSA; conditions: 20 mM Tris pH 7.5, 10 mM NaCl, 10 mM MgCl2, 2 mM DTT, 10% glycerol, 0.1 mg/ml BSA, 15 min, room temperature; EMSA 2 nM probe (gel at 4 C), MST 10 nM probe; recombinant protein; protein details: N-term 6xHis, thrombin site,none,none; label: 5' Cy5 (MST) or 5' IRDye800 (EMSA); single-stranded DNA

## TTTTTTTTTTTTTTTTTTTT [dT20]
[1]
  binding result: binds more weakly
[2]
  binding result: binds more weakly

## TTTTTTTTTTTT [dT12]
[3]
  binding result: binds more weakly

## TTTTTTTTTTTTTTTTTTTTTTTTTTTTTTTT [dT32]
[3]; with JC-229 (inhibitor IC50 24.5 nM, 33.9 nM in length series, MST)
  binding result: binds more weakly
[4]
  binding result: binds more weakly
[5]
  binding result: binds

Construct, isoform or probe ends are uncertain for at least one entry. For part of these data: Weaker means in comparison with the reference protein, sequence or condition of that experiment. For part of these data: Protein sequences can lack the tags named with them.
